A mixed list of measured activities; the numbers were collected in NIAID ChemDB.

Common to all: target-level tests

a–b is a range or a potency band. ICn: concentration for n% inhibition. Neighbouring rows are from separate reports. Fold resistance: result on the changed form divided by that on wild type. Percent inhibition refers to the dose given; in toxicity tests it is the harm to the cells. An empty or dashed field is not shown.

SMILES	mutations	read by	protein	read-out	agent	strain	dose	result
O=C(O[C@@H]1Cc2c(O)cc(O)cc2O[C@@H]1c1cc(O)c(O)c(O)c1)c1cc(O)c(O)c(O)c1		ELISA	CD4	IC50				<50 µM
Cc1ccc(/C=C2/SC(=S)N(NS(=O)(=O)c3ccccc3)C2=O)cc1			NS5B polymerase	IC50	Hepatitis C virus			≤30 µM
Nc1ccc(S(=O)(=O)Nc2ccccc2O)cc1			DHPS	IC50	Pneumocystis carinii			0.23 µM
CC(C)c1cccc(C=C2SC(=O)N(CC(=O)N3CCN(c4ccccc4)CC3)C2=O)c1		fluorescence	Falcipain-2	IC50	Plasmodium falciparum			23.89 µM
NC[C@H]1O[C@@H](n2ccc(=O)[nH]c2=O)C[C@@H]1O			Thymidine kinase	IC50	Herpes simplex virus 1			>5 µM
CCCC(=O)N(CC)c1cc(-c2ccccc2)sc1C(=O)O			NS3 ATPase	IC50	Hepatitis C virus			5–20 µM
Cc1cc(SC2=C(O)C[C@@](CCc3ccc(O)cc3)(C(C)C)OC2=O)c(C(C)(C)C)cc1CO			Cytochrome P450 2D6	inhibition			100 µM	33%
CS(=O)(=O)NC[C@H]1O[C@@H](n2cc(I)c(=O)[nH]c2=O)C[C@@H]1O			Thymidine kinase	IC50	Herpes simplex virus 1			0.5 µM
O=S(=O)(c1cccc2cnccc12)N1CCNCC1			Protein kinase C	IC50				0.5 µM
CC(=O)OC1C=COC=C2C[C@@]3(S)C(=O)N4C5C(=COC=CC5OC(C)=O)C[C@@]4(S)C(=O)N3C21			RNA polymerase	IC50	Coxsackie virus	TYPE A21		5.5 µg/mL
CC(C)CC(N)B(O)O			Aminopeptidase	IC50	Cryptosporidium parvum			<0.001 µM
CC(=O)OC1C=COC=C2C[C@H]3C(=O)N4C5C(=COC=CC5OC(C)=O)C[C@H]4C(=O)N3C21			RNA polymerase	IC50	Coxsackie virus	TYPE A21		30 µg/mL
O=C1/C(=C\c2ccc(Cl)c(Cl)c2)SC(=S)N1NS(=O)(=O)c1ccccc1			NS5B polymerase	IC50	Hepatitis C virus			≤30 µM
O=C(Nc1nnc(NCc2ccc(F)cc2)s1)c1ccc(F)cc1F			Polymerase	IC50	Human cytomegalovirus			>25 µM
CCOC(=O)C(C(=O)OCC)c1cn(S(=O)(=O)c2ccc(C)cc2)c2ccc(NC(=O)c3cc(F)c(F)c(F)c3)cc12	Y143R	strand transfer / fluorescence	Integrase	fold resistance	HIV-1			1
OC[C@H]1O[C@@H](n2cnc3cc(Cl)c(Cl)cc32)[C@H](O)[C@@H]1O			Protein kinase A	IC50				>30 µM
Cc1cn([C@H]2C[C@H](O)[C@@H](CN)O2)c(=O)[nH]c1=O			Thymidine kinase	IC50	Herpes simplex virus 1			1.4 µM
CC(C)[C@H](NC(=O)c1ccc2ccccc2n1)C(=O)N[C@@H](Cc1ccccc1)[C@H](O)CN1CC[C@@H](SCc2cccnc2)C[C@H]1C(=O)NC(C)(C)C	PR-V32I M46I A71V I84A	fluorescence	Protease	fold resistance	HIV			11900
CC(CCC(C(=O)O)P(=O)(O)O)CC(C)(C)C			DNA polymerase	IC50	Duck hepatitis B virus			>100 µM
CC(C)SCCC(C)C1CCC2C3=C(CCC21C)C1(C)CCC(O)CC1CC3			C24-methyltransferase	IC50	Candida albicans			20 µM
NC1CCN(c2nc3c(C4CC4)cc(C(=O)O)c(=O)n3cc2F)C1			Gyrase	IC50	Staphylococcus aureus	NCTC10649		0.15 µg/mL
CC(C)(C)OC(=O)CCNc1nnc(NC(=O)/C=C/c2ccccc2)s1			Polymerase	IC50	Human cytomegalovirus			<25 µM
COc1cc(O)c2c(c1)C(=O)c1c(O)c3c(c(OC)c1C2=O)C[C@@H](O)c1cc(C)c(C(=O)N[C@H](C)C(=O)O)c(O)c1-3			Glucosidase	IC50	Actinomadura verrucosospora			17 µg/mL
Cc1ccc(S(=O)(=O)n2cc(/C(O)=C/C(=O)C(=O)O)c3cc(F)ccc32)cc1		strand transfer / fluorescence	Integrase	IC50	HIV-1			1.2 µM
CCCCCCCCCCCNc1nnc(NC(=O)c2cc3ccccc3s2)s1			Polymerase	IC50	Human cytomegalovirus			>25 µM
CC(CNC(=O)OC(C)(C)C)N(C(=O)c1ccc(Cl)cc1Cl)c1cc(-c2ccccc2)sc1C(=O)O			NS3 ATPase	IC50	Hepatitis C virus			<5 µM
O=C1C=COC=C2C[C@@]34SS[C@]5(CC6=COC=CC(O)C6N5C3=O)C(=O)N4C12			RNA polymerase	IC50	Coxsackie virus	TYPE A21		0.06 µg/mL
Nc1cc2[nH]cnc2c(=O)[nH]1			RNA polymerase	inhibition	Simian rotavirus		500 µM	13%
O=C/C=C/c1ccccc1			Chitin synthase 1	Ki	Saccharomyces cerevisiae			530 µM
NC(N)=NCCNS(=O)(=O)c1cccc2cnccc12			Protein kinase A	IC50				2 µM
CN1C(=O)[C@]23CC4=CC=C[C@H](O)[C@H]4N2C(=O)[C@@]1(CO)SSSS3			RNA polymerase	IC50	Coxsackie virus	TYPE A21		0.8 µg/mL
Cc1c(Sc2ccccc2)n(COCCO)c(=O)[nH]c1=O	RT-Y181I Y188L		Reverse transcriptase	IC50	HIV			>5 µM
Cn1c2ccccc2c2c3c(c4c5ccccc5n(CC(F)F)c4c21)CNC3=O			cGMP-dependent kinase	IC50				0.71 µM
CCOC(=O)c1ccc(NS(=O)(=O)c2ccc(NC(C)=O)cc2)cc1			DHPS	IC50	Pneumocystis carinii			>10 µM
CC(=O)OC1C=COC=C2CC34SSC5(CC6=COC=CC(OC(C)=O)C6N5C3=O)C(=O)N4C21			RNA polymerase	IC50	Coxsackie virus	TYPE A21		0.1 µg/mL
CCCCC(N)B(O)O			Aminopeptidase	inhibition	Cryptosporidium parvum		0.001 µM	96%
COc1ccc(NS(=O)(=O)c2ccc(N)cc2)nn1			DHPS	IC50	Pneumocystis carinii			0.017 µM
NC(=O)c1ncn([C@@H]2O[C@H](COC(=O)c3ccc(S(=O)(=O)F)cc3)[C@@H](O)[C@H]2O)n1			NTPase/helicase	inhibition	Dengue virus		300 µM	29%
O=C(NN1C(=O)/C(=C\c2ccc(Cl)cc2)SC1=S)c1ccccc1			NS5B polymerase	IC50	Hepatitis C virus			>30 µM
O=C1CCCC(=O)O1			Uracil phosphoribosyltransferase	inhibition	Toxoplasma gondii	RH	2000 µM	<10%
O=S(=O)(F)Cc1ccccc1			Aminopeptidase	inhibition	Cryptosporidium parvum		1000 µM	18%
CCCCCCCCCCCNc1nnc(NC(=O)c2c(OCC)ccc3ccccc23)s1			Polymerase	IC50	Human cytomegalovirus			<25 µM
S=c1cccc[nH]1			Uracil phosphoribosyltransferase	Ki	Toxoplasma gondii	RH		570 µM
CCOC(=O)C(C(=O)OCC)c1cn(S(=O)(=O)c2ccc(C)cc2)c2ccc(NC(=O)c3ccc(F)cc3Cl)cc12		strand transfer / fluorescence	Integrase	IC50	HIV-1			>25 µM
O=C(O)C(CCCCCCCCCCCBr)P(=O)(O)O			DNA polymerase	IC50	Duck hepatitis B virus			>100 µM
Clc1nc2cc(Br)c(Br)cc2[nH]1			Protein kinase A	IC50				>30 µM
O=C(O)C(CCCC1CCCCC1)P(=O)(O)O			DNA polymerase	IC50	Duck hepatitis B virus			>100 µM
O=C1/C(=C\c2cc(F)c(F)c(F)c2)SC(=S)N1NS(=O)(=O)c1ccccc1			NS5B polymerase	IC50	Hepatitis C virus			≤30 µM
CCOC(=O)NC[C@H]1O[C@@H](n2cc(I)c(=O)[nH]c2=O)C[C@@H]1O			Thymidine kinase	IC50	Herpes simplex virus 1			0.29 µM
CCOC(=O)C(C(=O)OCC)c1cn(S(=O)(=O)c2ccc(C)cc2)c2ccc(NC(=O)c3cccc([N+](=O)[O-])c3)cc12	G140S	strand transfer / fluorescence	Integrase	fold resistance	HIV-1			0.9
CC1CNCCN1S(=O)(=O)c1cccc2cnccc12			Protein kinase A	IC50				10 µM
CCCCCCCCc1cc2cn([C@H]3C[C@H](O)[C@@H](CO)O3)c(=O)nc2o1			Thymidine kinase	IC50	Varicella zoster virus	TK+		37 µM
CCSCCNc1nnc(NC(=O)/C=C/c2ccccc2Cl)s1			Polymerase	IC50	Human cytomegalovirus			>25 µM
CC(=O)c1cnccn1			Uracil phosphoribosyltransferase	inhibition	Toxoplasma gondii	RH	2000 µM	<10%
COc1cc(OC)c(C=C2SC(=O)N(CC(=O)N3CCN(c4ccc(Cl)cc4)CC3)C2=O)c(OC)c1		fluorescence	Falcipain-2	IC50	Plasmodium falciparum			11.23 µM
CCCCCCCCc1cc2cn([C@H]3C[C@H](O)[C@@H](CO)S3)c(=O)nc2o1			Thymidine kinase	IC50	Varicella zoster virus	TK+		31 µM
CC1(C)OC(=O)/C(=C/C(=O)c2cn(Cc3ccc(F)cc3)c3ccc(Br)cc23)O1	G140S	strand transfer / fluorescence	Integrase	IC50	HIV-1			11.4 µM
O=C1/C(=C\c2ccc(Br)c(Br)c2)SC(=S)N1NS(=O)(=O)c1ccccc1			NS5B polymerase	IC50	Hepatitis C virus			≤30 µM
CC(=O)OC1C=COC=C2C[C@@]34SC(=O)S[C@]5(CC6=COC=CC(OC(C)=O)C6N5C3=O)C(=O)N4C21			RNA polymerase	IC50	Coxsackie virus	TYPE A21		0.5 µg/mL
O=C(O)c1sc(-c2ccccc2)cc1N(CC1CCCCNC1)C(=O)c1ccc(Cl)cc1Cl			NS3 ATPase	IC50	Hepatitis C virus			<5 µM
OB(O)C1CCCN1			Aminopeptidase	IC50	Cryptosporidium parvum			>0.001 µM
CN1CCN(c2nc3c(C4CC4)cc(C(=O)O)c(=O)n3cc2F)CC1			Gyrase	IC50	Staphylococcus aureus	NCTC10649		1 µg/mL
O=C1NCc2c1c1c3ccccc3[nH]c1c1[nH]c3ccccc3c21			cAMP-dependent protein kinase	IC50				36 µM
Cc1c[nH]c(=S)[nH]c1=O			Uracil phosphoribosyltransferase	inhibition	Toxoplasma gondii	RH	2000 µM	<10%
CC(=O)OC1C=COC=C2C[C@@]34S[C@]5(CC6=COC=CC(OC(C)=O)C6N5C3=O)C(=O)N4C21			RNA polymerase	IC50	Coxsackie virus	TYPE A21		3.8 µg/mL
CC(CCC1[NH2+]C1(C)C)C1CC[C@@]2(C)C3=C(CCC12C)C1(C)CCC(O)C(C)(C)C1CC3			C24-methyltransferase	Ki	Candida albicans			0.011 µM
CCCCC(=O)NC[C@H]1O[C@@H](n2cc(I)c(=O)[nH]c2=O)C[C@@H]1O			Thymidine kinase	IC50	Herpes simplex virus 1			0.15 µM
CCc1cnccn1			Uracil phosphoribosyltransferase	inhibition	Toxoplasma gondii	RH	2000 µM	<5%
NC1CCN(c2nc3c(cc2F)c(=O)c(C(=O)O)cn3-c2ccc(F)cc2F)C1			Gyrase	IC50	Staphylococcus aureus	NCTC10649		0.24 µg/mL
Cc1cc(C)nc(/N=C(\N)Nc2ccc(S(=O)(=O)NC(=O)Nc3ccccc3)cc2)n1			DHPS	IC50	Pneumocystis carinii			>10 µM
O=c1[nH]cccc1O			Uracil phosphoribosyltransferase	IC50	Toxoplasma gondii	RH		>2000 µM
Cc1ccc(S(=O)(=O)n2cc(C(C(=O)O)C(=O)O)c3cc(NC(=O)c4cc(F)c(F)c(F)c4)ccc32)cc1	G140S	strand transfer / fluorescence	Integrase	IC50	HIV-1			>25 µM
C=C(CCC(C)C1CCC2C3=C(CCC21C)C1(C)CCC(O)CC1CC3)C(C)C			C24-methyltransferase	Ki	Candida albicans			72 µM
CN1CCN(c2nc3c(-c4ccc(F)cc4F)cc(C(=O)O)c(=O)n3cc2F)CC1			Gyrase	IC50	Staphylococcus aureus	NCTC10649		3 µg/mL
O=C(O)c1sc(-c2ccccc2)cc1N(Cc1ccc(C(F)(F)F)cc1)C(=O)C1CC1			NS3 ATPase	IC50	Hepatitis C virus			5–20 µM
CCCCCCCCCCCCc1cc2cn([C@H]3C[C@H](O)[C@@H](CO)O3)c(=O)nc2o1			Thymidine kinase	IC50	Varicella zoster virus	TK+		>200 µM
O=C(O)c1cccc(C=C2SC(=O)N(CC(=O)N3CCN(c4ccccc4)CC3)C2=O)c1		fluorescence	Falcipain-2	IC50	Plasmodium falciparum			>50 µM
Cc1cccc(C)c1OCC(=O)N[C@@H](Cc1ccccc1)[C@H](O)CN1CC[C@@H](Sc2ccncc2)C[C@H]1C(=O)NC(C)(C)C	PR-V32I A71V	fluorescence	Protease	Ki	HIV			0.00006 µM
Cc1nc(N)c2ncn([C@@H]3O[C@H](COC(=O)c4ccc(S(=O)(=O)F)cc4)[C@@H](O)[C@H]3O)c2n1			NTPase/helicase	inhibition	Dengue virus		300 µM	41%
CC(=O)NC[C@H]1O[C@@H](n2cc(I)c(=O)[nH]c2=O)C[C@@H]1O			Thymidine kinase	IC50	Herpes simplex virus 1			0.56 µM
COc1cc(O)c2c(c1)C(=O)c1c(cc3c(c1O)-c1c(cc(C)c(C(=O)N[C@H](C)C(=O)O)c1O)[C@H](O)[C@H]3O)C2=O			Glucosidase	IC50	Actinomadura verrucosospora			>100 µg/mL
O=c1cn[nH]c(=O)[nH]1			Uracil phosphoribosyltransferase	inhibition	Toxoplasma gondii	RH	2000 µM	<5%
CCC(CC)[C@H](NC(C)=O)[C@@H]1[C@H](O)[C@@H](C(=O)O)C[C@H]1N=C(N)N			Influenza virus neuraminidase	IC50	Influenza A virus	WILD TYPE (1190		0.0011 µM
COc1cc(O)c2c(c1)C(=O)c1c(cc3c(c1O)-c1c(cc(C)c(C(=O)O)c1O)[C@H](O)[C@H]3O)C2=O			Glucosidase	IC50	Actinomadura verrucosospora			96 µg/mL
CCCc1c[nH]c(=O)[nH]c1=O			Uracil phosphoribosyltransferase	inhibition	Toxoplasma gondii	RH	2000 µM	<5%
O=C(O)C(=O)/C=C(\O)c1cn(Cc2cc(F)ccc2F)c2ccc(Br)cc12	Y143R	strand transfer / fluorescence	Integrase	fold resistance	HIV-1			1